Pooled drug test results. Numbers come from NIAID ChemDB, via PubChem.

All rows: toxicity to cultured cells; cell line: MT-4; measure: CC50

CCn is the concentration with n% toxicity to the cells.

N#Cc1ccccc1CN1CCC(N=C2C=C(Cc3ccc(Cl)cc3Cl)NS(=O)(=O)N2)CC1 ; read by: MTT ; result: 121 µM
Oc1cc(O)cc(/C=C/c2ccc(O)c(O)c2)c1 ; read by: MTT ; result: >333 µM
O=c1[nH]cnc2c1ncn2[C@H]1CC[C@@H](CO)O1 ; result: >200 µg/mL
Cc1cn([C@H]2C[C@H](N=[N+]=[N-])[C@@H](CO)O2)c(=O)[nH]c1=O ; read by: ATP / luminescence ; result: >0.1 µM
O=C(CN1CCN(c2ccc([N+](=O)[O-])cc2)CC1)OC[C@@H]1CC[C@H](n2cnc3c(=O)[nH]cnc32)O1 ; read by: MTT ; result: >1000 µM
Nc1ccc(C(=O)N2CCC(NC(=O)c3cc(O)c(O)c(O)c3)CC2)cc1 ; read by: MTT ; result: 35.6 µM
O=C(CN1CCN(c2ccccc2)CC1)OC[C@@H]1CC[C@H](n2cnc3c(=O)[nH]cnc32)O1 ; read by: MTT ; result: >1000 µM
Cc1cc(C#N)cc(C)c1Oc1nc(Nc2ccc(C#N)cc2)nc(N)c1Br ; read by: MTT ; result: >4.6 µM
CCCCCCCCCC(=O)O[C@@]12[C@H](OC(C)=O)[C@@H](C)[C@@]3(O)[C@@H](C=C(CO)C[C@]4(O)C(=O)C(C)=C[C@@H]34)[C@@H]1C2(C)C ; result: >62.5 µg/mL
N#Cc1ccc(Nc2nc(Oc3ccc(-c4ccc(C#N)cc4)cc3[N+](=O)[O-])c3sccc3n2)cc1 ; read by: MTT ; result: 218.8 µM
CC(C)=CCN1Cc2cc(Cl)cc3[nH]c(=S)n(c23)C[C@@H]1C ; result: 10 µg/mL
Cc1c(O)cccc1C(=O)N[C@@H](CSc1ccccc1)[C@H](O)CN1C[C@H]2CCCC[C@H]2C[C@H]1C(=O)NC(C)(C)C ; result: 6.8 µM
Cc1cc(C)c(S(=O)(=O)N2CCC(NC(=O)c3cc(O)c(O)c(O)c3)CC2)c(C)c1 ; read by: MTT ; result: 19.9 µM
N#Cc1ccc(Nc2nc(Oc3ccc(-c4ccc(C#N)cc4)c(F)c3)c3sccc3n2)cc1 ; read by: MTT ; result: >269.9 µM
CC(C)=CCN1[C@@H](C)Cn2c(=S)[nH]c3cccc(c32)[C@@H]1C ; result: 23 µg/mL
CC(C)c1nc(COC(N)=O)n(Cc2ccncc2)c1S(=O)(=O)c1cc(Cl)cc(Cl)c1 ; result: >0.5 µg/mL
Cc1cc(C)c(Oc2cc(Nc3ccc(C#N)cc3)ncc2C(=O)NCc2cn(CC(=O)N3CCOCC3)nn2)c(C)c1 ; read by: MTT ; result: 180.9 µM
Cc1cc(C)c(CN2CCC(N=C3C=C(Cc4ccc(Cl)cc4Cl)NS(=O)(=O)N3)CC2)c(C)c1 ; read by: MTT ; result: 37.35 µM
CC(C)=CCN1CCn2c(=S)[nH]c3ccc(Cl)c(c32)C1 ; result: 177 µg/mL
c1cc(CN2CCCNCCNCCCNCC2)ccc1CN1CCCNCCNCCCNCC1 ; read by: MTT ; result: >1 µM
CC(C)[C@H](NC(=O)[C@H](CCCN=C(N)N)NC(=O)N[C@@H](Cc1ccccc1)C(=O)O)C(=O)N[C@H](CO)Cc1ccccc1 ; result: >100 µM
COc1ccc(C(=O)N2CCC(NC(=O)c3cc(O)c(O)c(O)c3)CC2)cc1 ; read by: MTT ; result: 85.7 µM
O=S1(=O)NC(Cc2ccc(Cl)cc2Cl)=CC(=NC2CCN(Cc3ccccc3)CC2)N1 ; read by: MTT ; result: 110.8 µM
COc1cc(O)c2c(=O)c3cc(OC)ccc3oc2c1 ; read by: ATP / luminescence ; result: >10 µM
Cc1cc(-c2ccc(C#N)cc2)cc(C)c1Oc1nc(Nc2ccc(C#N)cc2)nc2ccsc12 ; read by: MTT ; result: 223.8 µM
C=C(C)[C@]12C[C@@H](C)[C@@]34OC5(CCCCCCC[C@H](C)[C@H]6[C@H](C)[C@H](O)[C@@](O)([C@H](O)[C@@]7(COC(=O)c8ccccc8)O[C@H]7[C@H]3[C@H]1O5)[C@@H]64)O2 ; read by: luminescence ; result: >0.03 µM
O=C(CN1CCN(c2ccc(Cl)cc2)CC1)OC[C@@H]1CC[C@H](n2cnc3c(=O)[nH]cnc32)O1 ; read by: MTT ; result: >1000 µM
CC(=O)OC[C@H]1O[C@@H](n2cc(C)c(=O)[nH]c2=O)C[C@@H]1N(C)OC(C)=O ; result: >250 µg/mL
CC(=O)N1CCC(NC(=O)c2cc(O)c(O)c(O)c2)CC1 ; read by: MTT ; result: 42.6 µM
C=C(C)[C@]12C[C@@H](C)[C@@]34OC5(CCCCCCC[C@H](C)[C@H]6[C@H](C)[C@H](OC(=O)c7ccccc7)[C@@](O)([C@H](O)[C@@]7(CO)O[C@H]7[C@H]3[C@H]1O5)[C@@H]64)O2 ; read by: luminescence ; result: >0.03 µM
Cc1cn([C@H]2C[C@H](N=[N+]=[N-])[C@@H](CO)O2)c(=O)[nH]c1=O ; read by: MTT ; result: >93.55 µM
Cc1cn([C@H]2C[C@H](N=[N+]=[N-])[C@@H](CO)O2)c(=O)[nH]c1=O ; result: >500 µM
CCCCCCCCCCCC(=O)O[C@@]12[C@H](OC(=O)C(C)CC)[C@@H](C)[C@@]3(O)[C@@H](C=C(CO)C[C@]4(O)C(=O)C(C)=C[C@@H]34)[C@@H]1C2(C)C ; result: >62.5 µg/mL
CC(C)=CCN1Cc2cc(Cl)cc3[nH]c(=S)n(c23)C[C@H]1C ; result: 5.5 µg/mL
C/C=C(/C)C(=O)O[C@@H]1[C@@H](C)[C@@]2(O)C(C=C(CO)C[C@]3(O)C(=O)C(C)=CC23)C2C(C)(C)[C@@]21OC(=O)C(C)CC ; result: >62.5 µg/mL
COc1ccc(S(=O)(=O)NC(N)=NCCC[C@H](NC(=O)N[C@@H](Cc2ccccc2)C(=O)OC(C)(C)C)C(=O)N[C@H](C(=O)N[C@H](C=O)Cc2ccccc2)C(C)C)cc1 ; result: 1.7 µM
CC(C)=CCN1Cc2cc(F)cc3[nH]c(=S)n(c23)C[C@@H]1C ; result: 24.7 µg/mL
C/C=C(/C)C(=O)O[C@]12C(C3C=C(CO)C[C@]4(O)C(=O)C(C)=CC4[C@@]3(O)[C@H](C)[C@H]1OC(C)=O)C2(C)C ; result: >500 µg/mL

Rows are shuffled and stem from different studies.